A short description of assay [1]: Inhibition of Leishmania donovani chagasi carbonic anhydrase preincubated for 15 mins by phenol red dye based stopped flow CO2 hydration assay.
Assay [2] is described as follows: Inhibition of Trypanosoma cruzi carbonic anhydrase preincubated for 15 mins by phenol red dye based stopped flow CO2 hydration assay.
Assay [3] is described as follows: Inhibition of Cryptococcus neoformans carbonic anhydrase preincubated for 15 mins by phenol red dye based stopped flow CO2 hydration assay.
Assay [4] can be described thus: Inhibition of Malassezia globosa carbonic anhydrase preincubated for 15 mins by phenol red dye based stopped flow CO2 hydration assay.

As to `Nc1cc(S(=O)(=O)[N-][N+](=O)[O-])cc([N+](=O)[O-])c1O`, the inhibition constant (Ki) is 1000 nM in assay [1], 850 nM in assay [2], 350 nM in assay [3] and 570 nM in assay [4].

Usually Ki stands for a measure of affinity in units of concentration, obtained from inhibition or displacement. The low end stands for a stronger hold on the target, the high end for a looser hold on the target.

These data come from ChEMBL document CHEMBL4433208, “N-Nitrosulfonamides as Carbonic Anhydrase Inhibitors: A Promising Chemotype for Targeting Chagas Disease and Leishmaniasis” (ACS Med Chem Lett, 2019).
